Results of unrelated studies side by side (data: NIAID ChemDB).

Shared fields: whole-cell or culture tests; agent: HIV-1; cells: MT-4; endpoint: EC50

An empty or dashed field is not shown. Two numbers with a dash give a range or band. ECn: concentration that inhibits the pathogen or its effect by n%. Rows are shuffled and stem from different studies.

| compound | strain | mutations | method | value |
|---|---|---|---|---|
| C=C1CN(S(=O)(=O)c2ccc(C)cc2)CCCN(Cc2ccccc2)CCCN(S(=O)(=O)c2ccc(C)cc2)C1 | NL4-3 | - | cytopathic effect / MTT | 0.88–1.32 µM |
| O=C(/C=C/c1ccc(O)c(O)c1)c1ccc(O)cc1 | - | - | cytopathic effect / MTT | >4.4 µM |
| C[C@H]1C[C@@H]2[C@@H](OC[C@@H]2OC(=O)N[C@@H](Cc2ccccc2)[C@H](O)CN2C[C@H]3CCCC[C@H]3C[C@H]2C(=O)NC(C)(C)C)O1 | IIIB | - | p24 | <0.2 µM |
| Cc1ccnc2c1NC(=O)c1cccnc1N2C1CC1 | - | RT-M41L T215Y Y181C | - | <3 µM |
| Nc1ncnc2c1ncn2CCOCP(=O)(O)O | - | - | trypan blue | 7 µM |
| CC(CC1CCCCC1)c1cc(=O)[nH]c(SCC(=O)c2ccc(O)cc2)n1 | IIIB | - | MTT | 1.44 µM |
| COc1cc(/C=C2\CCC/C(=C\c3ccc(O)c(OC)c3)C2=O)ccc1O | - | - | cytopathic effect / MTT | >2.4 µM |
| Cc1c(C(C)C2CCCCC2)nc(SCC(=O)c2ccc(O)cc2)[nH]c1=O | IIIB | - | MTT | 0.05 µM |
| CCOP(=O)(OC[C@H]1O[C@@H](n2cc(C)c(=O)[nH]c2=O)C[C@@H]1N=[N+]=[N-])C(=O)NCCc1ccccc1 | GKV-4046 | - | p24 | <0.0002 µM |
| O=c1[nH]cnc2c1ncn2[C@H]1CC[C@@H](CO)O1 | IIIB | - | cytopathic effect / MTT | 1.6 µM |
| Cc1c(CCC2CCCCC2)nc(SCC(=O)c2ccccc2)[nH]c1=O | IIIB | - | MTT | 1.72 µM |
| Cc1c(Sc2ccccc2)n(COCCO)c(=O)[nH]c1=O | IIIB | - | cytopathic effect / MTT | 7 µM |
| Nc1ccn([C@H]2CC[C@@H](CO)O2)c(=O)n1 | NL4-3 | - | cytopathic effect / MTT | 0.95 µM |
| COc1nc(Cc2cc(C)cc(C)c2)cc(=O)[nH]1 | IIIB | - | cytopathic effect / MTT | 34.4 µM |
| CC(C)(C)NC(=O)[C@@H]1C[C@@H]2CCCC[C@@H]2CN1C[C@@H](O)[C@H](Cc1ccccc1)NC(=O)O[C@H]1CO[C@H]2OCC[C@H]21 | IIIB | - | p24 | <0.046 µM |
| C#Cc1ccc(Nc2nccc(Oc3c(C)cc(-c4cn(CC(=O)OC)nn4)cc3C)n2)cc1 | IIIB | - | MTT | 2.32 µM |
| COC(=O)C(C)NP(=O)(OCC12CO[C@@H]([C@H](n3cnc4c(N)ncnc43)O1)[C@@H]2N=[N+]=[N-])Oc1ccccc1 | IIIB | - | antigen | >300 µM |
| Cc1cccc(Cc2nc(OC(C)C)[nH]c(=O)c2C)c1 | IIIB | - | cytopathic effect / MTT | >367 µM |
| Cc1cc(S(N)(=O)=O)ccc1NC(=O)COc1ccc(Cl)cc1C(=O)c1cccc(C#N)c1 | Nevirapine-resistant | RT-Y181C | cytopathic effect / MTS | 0.002 µM |
| C=C1[C@@H](CO)C[C@H]1n1cnc2c(N)ncnc21 | IIIB | - | cytopathic effect / MTT | 22 µM |
| Cc1c(O)cccc1C(=O)N[C@@H](CSc1ccccc1)[C@H](O)CN1C[C@H]2CCCC[C@H]2C[C@H]1C(=O)NC(C)(C)C | NL4-3 | - | cytopathic effect / MTT | 0.01835 µM |
| Nc1nc2c(ncn2[C@@H]2O[C@@H](CO)[C@H](O)[C@H]2O)c(=O)[nH]1 | IIIB | - | cytopathic effect / MTT | >100 µM |
| COc1ccc(CN[C@@H](C(=O)N[C@H](C(=O)NCc2nc3ccccc3[nH]2)C(C)C)[C@H](O)[C@H](Cc2ccccc2)NC(=O)[C@@H](NC(=O)[C@@](C)(O)c2ccccc2)C(C)(C)C)cc1 | IIIB | - | p24 | 0.0079 µM |
| C#Cc1ccc(Nc2nccc(Oc3c(C)cc(-c4cn(Cc5ccccc5[N+](=O)[O-])nn4)cc3C)n2)cc1 | IIIB | Y181C | MTT | >7.22 µM |
| C=C1C[C@@H](n2cnc3c(=O)[nH]c(N)nc32)[C@@H]1CO | IIIB | - | cytopathic effect / MTT | >100 µM |
| CCc1c(CCC2CCCCC2)nc(SCC(=O)c2ccccc2)[nH]c1=O | IIIB | - | MTT | 0.1 µM |
| c1cc(CN2CCCNCCNCCCNCC2)ccc1CN1CCCNCCNCCCNCC1 | NL4-3 | - | MTT | 0.06 µM |
| O=C1/C(=C/c2ccc(O)c(O)c2)CSC/C1=C\c1ccc(O)c(O)c1 | - | - | cytopathic effect / MTT | >4 µM |
| Cc1cn([C@H]2C[C@H](N=[N+]=[N-])[C@@H](CO)O2)c(=O)[nH]c1=O | NL4-3 | - | cytopathic effect / MTT | 0.0337 µM |
| Cc1cn([C@H]2C[C@H](N=[N+]=[N-])[C@@H](CO)O2)c(=O)[nH]c1=O | IIIB | - | visual reading | 0.0012 µM |
| C=C[C@@]1(C)C=C2CC[C@@H]3[C@@](C)(CO)[C@H](O)CC[C@@]3(C)[C@@H]2C[C@@H]1O | NL4-3 | - | luciferase | >20 µM |
| COC(=O)C(C)NP(=O)(OCC12CO[C@@H]([C@H](n3cc(C)c(=O)[nH]c3=O)O1)[C@@H]2N=[N+]=[N-])Oc1ccccc1 | IIIB | - | antigen | >300 µM |
| O=c1ccn([C@@H]2O[C@@H](CO)[C@H](O)[C@H]2O)c(=O)[nH]1 | IIIB | - | cytopathic effect / MTT | >1000 µM |
| Cc1ccc(N(C(=O)c2cccc([N+](=O)[O-])c2)C(=S)OCCN2C(=O)c3ccccc3C2=O)cc1 | IIIB | - | cytopathic effect / MTT | 0.02 µM |
| O=C1C(=Cc2ccc(O)c(O)c2)C(=O)c2ccccc21 | - | - | cytopathic effect / MTT | >32 µM |
| O=C(/C=C(O)/C=C/c1ccccc1)/C=C/c1ccccc1 | - | - | cytopathic effect / MTT | >41 µM |
| CC(=O)OC[C@@H]1C[C@H](n2cnc3c(N)ncnc32)CO1 | - | - | - | 10–20 µM |
| C#Cc1ccc(Nc2nccc(Oc3c(C)cc(-c4cn(-c5ccc(C(=O)O)cc5)nn4)cc3C)n2)cc1 | IIIB | E138K | MTT | 0.43 µM |
| O=c1[nH]n(-c2nc3ccccc3c(=O)n2-c2ccc([N+](=O)[O-])cc2)c(=O)c2ccccc12 | IIIB | - | visual reading | 66.47 µM |
| CCC(C)Oc1nc(Cc2cc(C)cc(C)c2)c(C)c(=O)[nH]1 | IIIB | - | cytopathic effect / MTT | 0.8 µM |
| Nc1ncnc2c1ncn2[C@H]1C[C@@H](OCP(=O)(O)O)CO1 | IIIB | - | MTT | 4.69 µM |
| [N-]=[N+]=N[C@H]1[C@H]2OC[C@]1(CO)O[C@H]2n1cnc2c(N)ncnc21 | IIIB | - | antigen | >300 µM |
| COc1cc(/C=C2\CCC/C(=C\c3ccc(O)c(OC)c3)C2=O)ccc1O | - | - | cytopathic effect / MTT | >2.4 µM |
| Nc1ncnc2c1ncn2[C@@H]1C[C@H](CO)[C@H]1CO | IIIB | - | cytopathic effect / MTT | 1.8 µM |
| Cc1cn([C@H]2C[C@H](N=[N+]=[N-])[C@@H](CO)O2)c(=O)[nH]c1=O | IIIB | - | cytopathic effect / MTT | 0.002–0.042 µM |
| CCOP(=O)(OC[C@H]1O[C@@H](n2cc(C)c(=O)[nH]c2=O)C[C@@H]1N=[N+]=[N-])C(N)=O | GKV-4046 | - | p24 | 0.0009 µM |
| O=C(/C=C/c1ccc(O)cc1)c1cccc(C(=O)/C=C/c2ccc(O)cc2)c1 | - | - | cytopathic effect / MTT | >35 µM |
| O=c1[nH]n(-c2nc3ccccc3c(=O)n2-c2ccncc2)c(=O)c2ccccc12 | IIIB | - | visual reading | 100 µM |
| COc1ccc(CN[C@@H](C(=O)N[C@H](C(=O)NCc2nc3ccccc3[nH]2)C(C)C)[C@H](O)[C@H](Cc2ccccc2)NC(=O)[C@@H](NC(=O)OCc2ccccc2)C(C)(C)C)cc1 | IIIB | - | cytopathic effect | 0.012 µM |
| C#Cc1ccc(Nc2nccc(Oc3c(C)cc(-c4cn(Cc5ccc(O)cc5)nn4)cc3C)n2)cc1 | IIIB | Y181C | MTT | 0.53 µM |
| COc1ccc(CN[C@@H](C(=O)N[C@H](C(=O)NCc2nc3ccccc3[nH]2)C(C)C)[C@H](O)[C@H](Cc2ccccc2)NC(=O)[C@@H](NC(=O)CCc2ccc(O)cc2)C(C)(C)C)cc1 | RF | - | p24 | 0.14 µM |
| Cc1cn([C@H]2C[C@@H](O)[C@H](CO)O2)c(=O)[nH]c1=O | IIIB | - | cytopathic effect / MTT | >1000 µM |
| Cc1cccc(Cc2cc(=O)[nH]c(OC3CCCC3)n2)c1 | IIIB | - | cytopathic effect / MTT | 2.8 µM |
| Nc1nc(NC2CC2)c2ncn([C@H]3C=C[C@@H](CO)C3)c2n1 | IIIB | - | cytopathic effect / MTT | 2.9 µM |
| Cc1cc(C)c(Nc2ccnc(Nc3ccc(C#N)cc3)n2)c(C)c1 | IIIB | - | syncytia | 0.001 µM |
| CC(C)[C@H](NC(=O)OCc1ccccc1)C(=O)N[C@@H](Cc1ccccc1)[C@@H](O)[C@@H](NCc1ccc(Cl)cc1)C(=O)N[C@H](C(=O)NCc1nc2ccccc2[nH]1)C(C)C | RF | - | p24 | 0.11 µM |
| O=C1/C(=C/c2ccc(O)c(O)c2)COC/C1=C\c1ccc(O)c(O)c1 | - | - | cytopathic effect / MTT | >10 µM |
| COc1ccc(/C=C/C(=O)/C=C(O)/C=C/c2ccc(OC)c(OC)c2)cc1OC | - | - | cytopathic effect / MTT | >4.1 µM |
| Cc1cn([C@H]2C[C@H](N=[N+]=[N-])[C@@H](CO)O2)c(=O)[nH]c1=O | IIIB | - | cytopathic effect / MTT | 0.0019 µM |
| COc1ccc(CN[C@@H](C(=O)N[C@H](C(=O)NCc2nc3ccccc3[nH]2)C(C)C)[C@H](O)[C@H](Cc2ccccc2)NC(=O)[C@@H](NC(=O)[C@@](C)(O)c2ccccc2)C(C)(C)C)cc1 | RF | - | p24 | 0.059 µM |
| CC(C)c1nc(CN(C)C(=O)N[C@H](C(=O)N[C@@H](Cc2ccccc2)C[C@H](O)[C@H](Cc2ccccc2)NC(=O)OCc2cncs2)C(C)C)cs1 | NL4-3 | - | cytopathic effect / MTT | 0.064 µM |
| Cc1cn([C@H]2C[C@H](N=[N+]=[N-])[C@@H](CO)O2)c(=O)[nH]c1=O | GKV-4046 | - | p24 | 0.018 µM |
| Nc1nc(=O)n([C@@H]2CO[C@H](CO)S2)cc1F | IIIB | - | p24 | 3 µM |
| O=C(/C=C/c1ccc(O)cc1)/C=C/c1ccc(O)cc1 | - | - | cytopathic effect / MTT | >1.6 µM |
| CC(C)(C)NC(=O)[C@@H]1C[C@@H]2CCCC[C@@H]2CN1C[C@@H](O)[C@H](Cc1ccccc1)NC(=O)O[C@@H]1CO[C@@H]2OCCC[C@@H]21 | IIIB | - | p24 | <0.05 µM |
| COc1nc(Cc2cc(C)cc(C)c2)c(C)c(=O)[nH]1 | IIIB | - | cytopathic effect / MTT | >387 µM |
| Cc1cn([C@H]2C[C@H](N=[N+]=[N-])[C@@H](CO)O2)c(=O)[nH]c1=O | - | - | MTT | 0.005 µg/mL |
| C#Cc1ccc(Nc2nccc(Oc3c(C)cc(-c4cn(Cc5ccc([N+](=O)[O-])cc5)nn4)cc3C)n2)cc1 | IIIB | - | MTT | 0.045 µM |
| O=C1Nc2ccc(Cl)cc2[C@@](C#CC2CC2)(C(F)(F)F)O1 | IIIB | K103N | MTT | 0.071 µM |
| Cc1cn([C@H]2C[C@H](N=[N+]=[N-])[C@@H](CO)O2)c(=O)[nH]c1=O | NL4-3 | - | cytopathic effect / MTT | 0.011 µM |
| CCC(C)Oc1nc(Cc2cc(C)cc(C)c2)cc(=O)[nH]1 | IIIB | - | cytopathic effect / MTT | 2.7 µM |
| O=C(/C=C/c1ccc(O)c(O)c1)/C=C/c1ccc(O)c(O)c1 | - | - | cytopathic effect / MTT | >38 µM |
| CC(C)[C@H](NC(=O)OCc1ccccc1)C(=O)N[C@@H](Cc1ccccc1)[C@@H](O)[C@@H](NCc1ccc(Br)cc1)C(=O)N[C@H](C(=O)NCc1ccccc1)C(C)C | IIIB | - | MTT / p24 | 0.147 µM |
| Nc1nc2c(ncn2[C@H]2C[C@@H](O)[C@H](CO)O2)c(=O)[nH]1 | IIIB | - | cytopathic effect / MTT | >100 µM |
| O=C(/C=C/c1ccc(O)c(O)c1)c1ccc(O)cc1O | - | - | cytopathic effect / MTT | >3.3 µM |
| CO[C@H]1[C@H]2[C@@H]([C@H](OC(C)=O)[C@@H](C)C(=O)[C@@]34C[C@H](C)[C@H](OC(C)=O)[C@]3(/C=C(\C)[C@H]1OCc1ccccc1)O4)C2(C)C | NL4-3 | - | luciferase | 1.38 µM |
| C#Cc1ccc(Nc2nccc(Oc3c(C)cc(-c4cn(CC(=O)Nc5ccc(Br)cc5)nn4)cc3C)n2)cc1 | IIIB | E138K | MTT | >19.78 µM |
| CCc1c(CCC2CCCCC2)nc(SCC(=O)c2ccc(F)cc2)[nH]c1=O | IIIB | - | MTT | 0.14 µM |

The first 8 rows once more:

compound	strain	mutations	method	value
C=C1CN(S(=O)(=O)c2ccc(C)cc2)CCCN(Cc2ccccc2)CCCN(S(=O)(=O)c2ccc(C)cc2)C1	NL4-3	-	cytopathic effect / MTT	0.88–1.32 µM
O=C(/C=C/c1ccc(O)c(O)c1)c1ccc(O)cc1	-	-	cytopathic effect / MTT	>4.4 µM
C[C@H]1C[C@@H]2[C@@H](OC[C@@H]2OC(=O)N[C@@H](Cc2ccccc2)[C@H](O)CN2C[C@H]3CCCC[C@H]3C[C@H]2C(=O)NC(C)(C)C)O1	IIIB	-	p24	<0.2 µM
Cc1ccnc2c1NC(=O)c1cccnc1N2C1CC1	-	RT-M41L T215Y Y181C	-	<3 µM
Nc1ncnc2c1ncn2CCOCP(=O)(O)O	-	-	trypan blue	7 µM
CC(CC1CCCCC1)c1cc(=O)[nH]c(SCC(=O)c2ccc(O)cc2)n1	IIIB	-	MTT	1.44 µM
COc1cc(/C=C2\CCC/C(=C\c3ccc(O)c(OC)c3)C2=O)ccc1O	-	-	cytopathic effect / MTT	>2.4 µM
Cc1c(C(C)C2CCCCC2)nc(SCC(=O)c2ccc(O)cc2)[nH]c1=O	IIIB	-	MTT	0.05 µM